pIC50: −log10 of the molar value. The match of structure and compound is tentative.

This assay addresses HIV reverse transcriptase (Human immunodeficiency virus type 1 group M subtype B, UniProt P04585). Nature of the assay: HIV Reverse Transcriptase Assay (IC50). The conditions noted are these: assay of Example 67; 1 mM of ATP added to the reaction mixture. The procedure:
Diluted solutions of stock solutions of compounds of Formula I in DMSO are prepared in assay buffer in Eppendorf tubes 16 h prior to their use in the biological assay, using a minimal supplementary volume of 75 μL of assay buffer in addition to the volume required in the assay. The samples are vortexed for 10 min at RT and incubated for 16 h at 4° C. The equilibrated solutions are centrifuged at 16 000 g for 5 min in a centrifuge equipped with an internal chiller, which is pre-equilibrated at 4° C., and the supernatant is collected. The portion of supernatant required for the serial dilutions in the biological assay is transferred to the compound dilution plate and a 75 μL portion of the remaining supernatant is transferred to a 1.4 mL tube (Micronic). A 25 μL volume of DMSO is promptly added and the sample is submitted for concentration determination by HPLC, along with the stock solution of the compound in DMSO as a standard for concentration determination analysis.
HIV Reverse Transcriptase Assay (IC50)
The assay used to measure inhibition of HIV reverse transcriptase is as described in WO 2006/034583, pages 52-53, incorporated herein by reference, except that 1 mM of ATP was added to the reaction mixture.

As to `CNc1ccc(-c2nc(=O)n(CC(=O)N3CCCC3)c3c2oc2ncc(-c4cnn(C)c4)cc23)cn1`, the pIC50 – broadly, the negative decadic logarithm of the IC50, by convention in mol/L – is 7.15.

The values above are taken from patent US8349839B2, “Inhibitors of HIV replication” (Boehringer Ingelheim International GmbH, priority 2009, dated 2013).
